Potato spindle tuber viroid, loop 15: variant abundance in plants

Values reported by Wu et al. 2024 (doi:10.1371/journal.ppat.1012142).

PSTVd intermediate strain, loop 15: wild type GGAAACCGCUACUAC, pool pattern GGAAACCGNNNNNNC; upper and lower strand joined, each 5' to 3', the first 7 letters being the upper strand, closing pairs included.

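Three N. benthamiana plants were inoculated with the whole mutant pool. Samples came from the inoculated region at 5 days, the leaf margin at 10 and upper systemic leaves at 12.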

Numbers give reads per thousand; 0 = not seen among the reads, higher = more abundant. Each value is the mean of three plants. "Pool" is the share in the plasmid pool used as inoculum, on the same scale. The inoculated region was read from the minus strand, the other sites from the plus strand. With 43,870-66,106 reads a sample, very low values are single reads. Sequences that differ at fixed positions probably stem from PCR or sequencing errors, and defective variants can be carried along by functional ones. Wild type was 33.9 per thousand in the pool and the most common sequence in every sample (inoculated region 202, 200, 159; leaf margin 724, 746, 710; systemic leaves 856, 883, 880).

For GGAAACCGAUCUGAC (pool 0.240) the result was inoculated region 0.0967; leaf margin 0.00742; systemic leaves 0.
For GGAAACCGCCAGCGC (pool 0.256) the result was inoculated region 0.107; leaf margin 0.0108; systemic leaves 0.
For GGAAACCGCGUGGAC (pool 0.176) the result was inoculated region 0.102; leaf margin 0; systemic leaves 0.
For GGAAACCGCUGUUGC (pool 0.304) the result was inoculated region 0.0597; leaf margin 0.0208; systemic leaves 0.
For GGAAACCGGCGUAGC (pool 0.272) the result was inoculated region 0.0920; leaf margin 0.00668; systemic leaves 0.
For GGAAACCGCAUGGUC (pool 0.176) the result was inoculated region 0.0687; leaf margin 0.0262; systemic leaves 0.
For GGAAACCGGCUGUAC (pool 0.320) the result was inoculated region 0.298; leaf margin 0.160; systemic leaves 0.0635.
For GGAAACCGAAUACCC (pool 0.160) the result was inoculated region 0.0794; leaf margin 0.00539; systemic leaves 0.
For GGAAACCGUUAGCAC (pool 0.176) the result was inoculated region 0.292; leaf margin 0.133; systemic leaves 0.0430.
For GGAAACCGGCUAUAC (pool 0.192) the result was inoculated region 0.0959; leaf margin 0.0134; systemic leaves 0.
For GGAAACCGUGAGGAC (pool 0.224) the result was inoculated region 0.349; leaf margin 0.0637; systemic leaves 0.102.
For GGAAACCGACAGGUC (pool 0.224) the result was inoculated region 0.270; leaf margin 0.0900; systemic leaves 0.0211.
For GGAAACCGCUGCACC (pool 0.256) the result was inoculated region 0.168; leaf margin 0.0108; systemic leaves 0.
For GGAAACCGCCUACGC (pool 0.288) the result was inoculated region 0.0807; leaf margin 0; systemic leaves 0.00760.
For GGAAACCGAGCGAGC (pool 0.208) the result was inoculated region 0.0985; leaf margin 0; systemic leaves 0.
For GGAAACCGAGCAUCC (pool 0.272) the result was inoculated region 0.120; leaf margin 0.0108; systemic leaves 0.
For GGAAACCGCGCGCCC (pool 0.272) the result was inoculated region 0.101; leaf margin 0.0175; systemic leaves 0.0107.
For GGAAACCGGGAGUCC (pool 0.336) the result was inoculated region 0.275; leaf margin 0.0592; systemic leaves 0.0332.
For GGAAACCGCAUCGCC (pool 0.320) the result was inoculated region 0.133; leaf margin 0.0134; systemic leaves 0.
For GGAAACCGUACAGUC (pool 0.160) the result was inoculated region 0.0667; leaf margin 0; systemic leaves 0.